The source of these data is article PMC3898920 (PLoS ONE, 2014).

The data set in a line: Steady-state plasma pharmacokinetics of rifabutin and 25-O-desacetylrifabutin, alone and with lopinavir/ritonavir. The following applies: for Cave (AUCτ/τ) / Cmax / C0 / AUCτ: median (range); for C0: pre-dose.
The mark [1] stands for this setting: rifabutin 150 mg OD plus LPV/r vs rifabutin 300 mg OD alone.
Where [2] appears, read: rifabutin 150 mg OD with lopinavir/ritonavir.
Setting [3] is: rifabutin 150 mg TPW plus LPV/r vs rifabutin 300 mg OD alone.
The mark [4] stands for this setting: rifabutin 150 mg TPW with lopinavir/ritonavir.

“25-O-desacetylrifabutin [25-O desacetyl rifabutin]”: the “AUCτ geometric mean ratio (90% CI)” value (rifabutin 150 mg OD plus LPV/r (AUC24h) vs rifabutin 300 mg OD alone) is 5.13 (3.94; 6.69) and the “AUCτ geometric mean ratio (90% CI)” value (rifabutin 150 mg TPW plus LPV/r (AUC48h) vs rifabutin 300 mg OD alone) is recorded as 4.74 (3.59; 6.25). The “C0 geometric mean ratio (90% CI)” value under setting [1] is listed as 11.49 (8.21;16.09). For the same substance, the “Cave geometric mean ratio (90% CI)” value reads like this: under setting [1], 5.13 (3.94; 6.69); under setting [3], 2.36 (1.79;3.12). The “Cmax geometric mean ratio (90% CI)” value under setting [1] is given as 2.58 (2.04;3.25) and the “Cmax geometric mean ratio (90% CI)” value under setting [3] is 1.57 (1.21;2.03). Further, the “Cave (AUCτ/τ)” value reads like this: under setting [2], 79 (18–159) ng/mL; (rifabutin 300 mg OD alone) 29 (10–427) ng/mL. Also, the Cmax runs as follows: under setting [2], 216 (94 – 535) ng/mL; under setting [4], 142 (31 – 308) ng/mL; (rifabutin 300 mg OD alone, plasma, steady state) 80 (25 - 595) ng/mL. Further, the C0 by setting is: under setting [2], 137 (48 – 334) ng/mL; under setting [4], 54 (14 – 118) ng/mL; (rifabutin 300 mg OD alone) 10 (0 – 595) ng/mL. Besides, the AUCτ by setting is: (rifabutin 150 mg OD with lopinavir/ritonavir, τ 24 h) 4127 (1769–8616) ng.h/mL; (rifabutin 150 mg TPW with lopinavir/ritonavir, τ 48 h) 3807 (872–7628) ng.h/mL; (rifabutin 300 mg OD alone, τ 24 h) 697 (245–10250) ng.h/mL.
